Results of unrelated studies side by side (data: NIAID ChemDB).

All rows: whole-cell or culture tests; organism: Hepatitis C virus; read by: luciferase; endpoint: EC50

An empty or dashed field is not shown. a–b is a range or a potency band. ECn is the concentration giving n% inhibition of infection, replication or growth. Rows are shuffled and stem from different studies.

SMILES | conditions | strain or isolate | cell line | mutations | result
CC(C)(C)NC(=O)N[C@H](C(=O)N1C[C@H]2[C@@H]([C@H]1C(=O)NC(CC1CCC1)C(=O)C(N)=O)C2(C)C)C(C)(C)C | - | GT1b | 1C | - | 0.204 µM
[N-]=[N+]=N[C@]1(CO)O[C@@H](n2ccc(N)nc2=O)[C@H](O)[C@@H]1O | - | - | Huh 5-2 | - | >33 µM
COC(=O)NC[C@H](C(=O)N1CCCC1c1ncc(-c2ccc(-c3ccc(-c4cnc(C5CCCN5C(=O)[C@@H](NC(=O)OC)C(C)C)[nH]4)cc3)cc2)[nH]1)C(C)C | - | Con1 | Huh7 | - | 0.055 µM
O=S(=O)(F)c1ccc2nc(-c3cccc(Sc4ccccc4)c3)cc(Cl)c2c1 | - | JFH-1 | Huh7 | - | >10 µM
C[C@H](NP(=O)(OC[C@H]1O[C@@H](n2cnc3c(=O)[nH]c(N)nc32)[C@](C)(O)[C@@H]1F)Oc1ccccc1Cl)C(=O)OCC(C)(C)C | - | - | Huh7 | - | 10–100 µM
C[C@@]1(O)[C@H](O)[C@@H](CO)O[C@H]1c1cnc2c(=O)[nH]c(N)nn12 | - | GT-1b Con1 | Huh7 | - | >100 µM
COC(=O)N[C@H](C(=O)N1CCC[C@H]1c1ncc(-c2ccc(-c3ccc(-c4cnc([C@@H]5CCCN5C(=O)[C@@H](NC(=O)OC)C(C)C)[nH]4)cc3)cc2)[nH]1)C(C)C | - | GT3a | 1C | P89L K583E | 0.00059 µM
NC(=O)c1ncn([C@@H]2O[C@H](CO)[C@@H](O)[C@H]2O)n1 | - | - | - | - | 3 µM
C[C@H](NP(=O)(OC[C@H]1O[C@@H](n2cnc3c(=O)[nH]c(N)nc32)[C@](C)(O)[C@@H]1F)Oc1ccccc1)C(=O)OC1CCCCC1 | - | - | Huh7 | - | 1–10 µM
C[C@H](Cn1cnc2c(N)ncnc21)OCP(=O)(O)O | 45% human serum | GT1b | Replicon cells | - | >237 µM
C[C@]12CC[C@H]3c4ccc(OCC(=O)O)cc4CC[C@@H]3[C@H]1CCC2=O | - | JFH-1 | Huh7 | - | >10 µM
C=C[C@@H]1C[C@]1(NC(=O)[C@@H]1C[C@@H]2CN1C(=O)[C@H](C(C)(C)C)NC(=O)C[C@@H]1C[C@H]1CCCCCc1nc3ccc(OC)cc3nc1O2)C(=O)NS(=O)(=O)C1CC1 | - | GT1b | 1C | - | 0.0008 µM
Nc1nc(N)nc(-c2ccccc2-c2nc(N)nc(N)n2)n1 | - | JFH-1 | Huh7 | - | >10 µM
CC1CCC(C(=O)N(c2cc(C#CC(C)(C)C)sc2C(=O)O)C2CCC(O)CC2)CC1 | - | GT3a | Huh7-Lunet | - | >50 µM
Cc1c(N)nc([C@H](CC(N)=O)NC[C@H](N)C(N)=O)nc1C(=O)N[C@H](C(=O)N[C@H](C)[C@@H](O)[C@H](C)C(=O)N[C@H](C(=O)NCCc1nc(-c2nc(C(=O)NCCC[S+](C)C)cs2)cs1)[C@@H](C)O)C(O[C@@H]1O[C@@H](CO)[C@@H](O)[C@H](O)[C@@H]1O[C@H]1O[C@H](CO)[C@@H](O)[C@H](OC(N)=O)[C@@H]1O)c1cnc[nH]1 | - | - | Huh7 | - | 1.5 µM
NC(=O)/C(=C\c1ccncc1)c1cccc2ccccc12 | - | JFH-1 | Huh7 | - | >10 µM
COc1ccc2c(O[C@@H]3C[C@H]4C(=O)N[C@]5(C(=O)O)C[C@H]5/C=C\CCCCC[C@H](NC(=O)OC5CCCC5)C(=O)N4C3)cc(-c3csc(NC(C)C)n3)nc2c1 | - | GT3a | 1C | P89L K583E | 0.347 µM
CC(=O)Nc1ccc(-c2ccc(Cl)cc2)c(COc2ccc(-c3nc4cc(C(=O)O)ccc4n3C3CCCCC3)cc2)c1 | - | 1b | Huh7 | - | 0.1093 µM
Cc1ccc([N+](=O)[O-])cc1NC(=O)Nc1onc(C)c1C | - | JFH-1 | Huh7 | - | >10 µM
C[C@H](NP(=O)(OC[C@H]1O[C@@H](n2cnc3c(=O)[nH]c(N)nc32)[C@](C)(O)[C@@H]1F)Oc1ccc(F)c(Cl)c1)C(=O)OC1CCCCC1 | - | - | Huh7 | - | 10–100 µM
Fc1cccc(-c2nc3ccn(Cc4cc(-c5ccc(Cl)cc5)no4)cc-3n2)c1F | - | - | Huh 5-2 | - | >19 µM
CC(Cc1ccc(O)c(O)c1)C(C)Cc1ccc(O)c(O)c1 | - | - | Huh7 | - | 30 µM
CCOc1nc(N)nc2c1ncn2[C@@H]1O[C@H](COP(=S)(N[C@@H](C)C(=O)OC(C)C)Oc2ccccc2)[C@@H](F)[C@@]1(C)O | - | - | Huh7 | - | 10–100 µM
C[C@@]1(O)[C@H](O)[C@@H](CO)O[C@H]1c1ccc2c(N)ncnn12 | - | GT-1b Con1 | Huh7 | - | 1.6 µM
CCOc1nc(N)nc2c1ncn2[C@@H]1O[C@H](COP(=O)(N[C@@H](C)C(=O)OC2CCCCC2)Oc2ccccc2)[C@@H](F)[C@@]1(C)O | - | - | Huh7 | - | <1 µM
Cc1nnc(C(=O)NC(C)(C)c2nc(C(=O)NCc3ccc(F)cc3)c(O)c(=O)n2C)o1 | 45% human serum | GT1b | Replicon cells | - | >143 µM
C=CC(=O)NCC(=O)N1C[C@H](Oc2nccc3ccc(Br)cc23)C[C@H]1C(=O)N[C@]1(C(=O)NS(=O)(=O)C2CC2)C[C@H]1C=C | - | 1b C159S | - | - | 1.288 µM
Fc1ccccc1-c1nc2ccn(Cc3ccc(-c4ccc(C(F)(F)F)cc4C(F)(F)F)nn3)cc-2n1 | - | GT1b | 1C | - | 0.0027 µM
C[C@@]1(O)[C@H](O)[C@@H](CO)O[C@H]1n1cnc2c(N)ncnc21 | - | 3a S52 | Huh7 replicon | - | 0.091 µM
CCC[C@H](NC(=O)[C@@H]1[C@H]2CCC[C@H]2CN1C(=O)[C@@H](NC(=O)[C@@H](NC(=O)c1cnccn1)C1CCCCC1)C(C)(C)C)C(=O)C(=O)NC1CC1 | - | - | Huh 5-2 | - | >24 µM
Nc1ccn([C@@H]2CS[C@H](CO)O2)c(=O)n1 | 45% human serum | GT1b | Replicon cells | - | >241 µM
Fc1ccccc1-c1nc2ccn(Cc3ccc(-c4ccc(C(F)(F)F)cc4C(F)(F)F)nn3)cc-2n1 | - | Con1 | 1C | - | 0.0014 µM
CCOc1nc(N)nc2c1ncn2[C@@H]1O[C@H](COP(=S)(N[C@@H](C)C(=O)OC2CCCCC2)Oc2ccccc2)[C@@H](F)[C@@]1(C)O | - | - | Huh7 | - | 1–10 µM

4 of the rows above, restated:

SMILES,conditions,strain or isolate,cell line,mutations,result
CC1CCC(C(=O)N(c2cc(C#CC(C)(C)C)sc2C(=O)O)C2CCC(O)CC2)CC1,-,GT3a,Huh7-Lunet,-,>50 µM
[N-]=[N+]=N[C@]1(CO)O[C@@H](n2ccc(N)nc2=O)[C@H](O)[C@@H]1O,-,-,Huh 5-2,-,>33 µM
CCOc1nc(N)nc2c1ncn2[C@@H]1O[C@H](COP(=S)(N[C@@H](C)C(=O)OC2CCCCC2)Oc2ccccc2)[C@@H](F)[C@@]1(C)O,-,-,Huh7,-,1–10 µM
NC(=O)c1ncn([C@@H]2O[C@H](CO)[C@@H](O)[C@H]2O)n1,-,-,-,-,3 µM